## PSTVd stem 15 mutant pool in Nicotiana benthamiana

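A pool of all variants was put on leaves of three Nicotiana benthamiana plants. Samples came from the inoculated region at 5 days, the leaf margin at 10 and upper systemic leaves at 12.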

PSTVd intermediate strain, stem 15: wild type CUGGAGCGAUCGCUUCGG, pool pattern CUGGAGCGAUNGNNUNNG; upper and lower strand joined, each 5' to 3', the first 9 letters being the upper strand.

Numbers give reads per thousand; 0 = not seen among the reads, higher = more abundant. Each value is the mean of three plants. "Pool" is the share in the plasmid pool used as inoculum, on the same scale. The inoculated region was read from the minus strand, the other sites from the plus strand. With 36,693-63,082 reads a sample, very low values are single reads. Wild type was 10.2 per thousand in the pool and the most common sequence in every sample (inoculated region 285, 367, 312; leaf margin 785, 865, 782; systemic leaves 854, 898, 915). The authors trace changes outside the varied positions to PCR and sequencing errors or to mutation in the plant; presence does not show that a variant is infectious alone.

| # | sequence | pool | inoculated region | leaf margin | systemic leaves |
|---|---|---|---|---|---|
| 1 | CUGGAGCGAUGGUUUACG | 0.792 | 0.284 | 0.0320 | 0 |
| 2 | CUGGAGCGAUCGCAUUUG | 1.05 | 0.242 | 0.0356 | 0 |
| 3 | CUGGAGCGAUUGGGUCUG | 0.889 | 0.287 | 0.0545 | 0 |
| 4 | CUGGAGCGAUGGCCUCCG | 0.760 | 0.348 | 0.0679 | 0 |
| 5 | CUGGAGCGAUAGUGUAAG | 0.679 | 0.335 | 0 | 0 |
| 6 | CUGGAGCGAUAGGCUCUG | 0.921 | 0.262 | 0.0950 | 0 |
| 7 | CUGGAGCGAUGGCUUGAG | 1.07 | 0.240 | 0.0303 | 0 |
| 8 | CUGGAGCGAUUGCGUAAG | 1.03 | 0.607 | 0.0509 | 0 |
| 9 | CUGGAGCGAUCGCUUUCG | 0.743 | 0.253 | 0.0463 | 0 |
| 10 | CUGGAGCGAUUGGUUCCG | 0.743 | 0.269 | 0.0282 | 0 |
| 11 | CUGGAGCGAUAGUCUGGG | 0.614 | 0.330 | 0.0207 | 0 |
| 12 | CUGGAGCGAUCGGUUUGG | 2.05 | 1.37 | 0.0334 | 0.00664 |
| 13 | CUGGAGCGAUAGUUUAUG | 1.62 | 0.882 | 0.0808 | 0 |
| 14 | CUGGAGCGAUCGAAUGGG | 0.760 | 0.302 | 0.0260 | 0 |
| 15 | CUGGAGCGAUGGGGUCCG | 0.760 | 0.202 | 0.0488 | 0 |
| 16 | CUGGAGCGAUCGUUUGGG | 0.727 | 0.273 | 0.0298 | 0 |
| 17 | CUGGAGCGAUAGAUUACG | 1.87 | 0.989 | 0.0526 | 0 |
| 18 | CUGGAGCGAUCGCUUUGG | 2.25 | 12.3 | 11.8 | 7.49 |
| 19 | CUGGAGCGAUCGCCUUGG | 0.792 | 0.202 | 0.0488 | 0 |
| 20 | CUGGAGCGAUCGUUUACG | 0.792 | 0.289 | 0.0367 | 0 |
| 21 | CUGGAGCGAUAGGCUAAG | 0.663 | 0.261 | 0.0320 | 0 |
| 22 | CUGGAGCGAUAGUUUUGG | 2.13 | 2.33 | 0.0479 | 0 |
| 23 | CUGGAGCGAUAGCAUGCG | 0.954 | 0.264 | 0.0519 | 0 |
| 24 | CUGGAGCGAUAGGCUUAG | 0.743 | 1.44 | 0.0106 | 0 |
| 25 | CUGGGGCGAUAGGUUCGG | 0.0323 | 0 | 0 | 0 |
| 26 | CUGGAGCGAUUGAAUAAG | 0.905 | 0.270 | 0.0463 | 0 |
| 27 | CUGGAGCGAUUGUUUACG | 0.727 | 0.290 | 0.0345 | 0 |
| 28 | CUGGAGCGAUGGUUUAUG | 0.889 | 1.07 | 0.0160 | 0 |
| 29 | CUGGAGCGAUAGUGUAGG | 1.37 | 0.466 | 0.0541 | 0 |
| 30 | CUGGAGCGAUUGCUUGGG | 1.18 | 0.681 | 0.0356 | 0.0133 |
| 31 | CUGGAGCGAUUGAUUACG | 0.808 | 0.269 | 0.0500 | 0 |
| 32 | CAGGAGCGAUGGAUUUUG | 0.0162 | 0 | 0 | 0 |
| 33 | CUGGAGCGAUAGGAUUUG | 0.857 | 0.313 | 0.0244 | 0 |
| 34 | CUGGAGCGAUCGGCUGUG | 0.727 | 0.306 | 0.0298 | 0 |
| 35 | CUGGAGCGAUCGCUCCGG | 0.113 | 0.190 | 0.200 | 0.313 |
| 36 | CUGGAGCGAUCGCCUUUG | 0.857 | 0.268 | 0.0573 | 0 |
| 37 | CUGGAGCGAUGGUAUUCG | 1.05 | 0.515 | 0.0503 | 0 |
| 38 | CUGGAGCGAUAGAAUGGG | 1.81 | 0.592 | 0.0388 | 0.00739 |
| 39 | AUGGAGCGAUAGACUAAG | 0.0162 | 0 | 0 | 0 |
| 40 | CUGGGGCGAUCGAAUGAG | 0.0162 | 0 | 0 | 0 |
| 41 | CUGGAGCGAUGGACUGGG | 0.889 | 0.273 | 0.0282 | 0 |
| 42 | CUGGAGCGAUGGAGUCAG | 0.905 | 0.289 | 0.0729 | 0 |
| 43 | CUGGAGCGAUGGAGUUUG | 0.954 | 0.235 | 0.0654 | 0 |
| 44 | CUGGAGCGAUCGCCUCUG | 0.873 | 0.295 | 0.0641 | 0 |
| 45 | CUGGAGCGAUUGUUUUGG | 0.760 | 1.68 | 0.0325 | 0 |
| 46 | CUGGAGCGAUGGCAUUUG | 0.808 | 0.262 | 0.0419 | 0 |
| 47 | CUGGAGCGAUUGUUUGGG | 0.824 | 0.230 | 0.0488 | 0 |
| 48 | CUGGAGCGAUUGUCUGUG | 0.743 | 1.62 | 0.0482 | 0 |
| 49 | CUGGAGCGAUAGCAUGUG | 0.873 | 0.286 | 0.0213 | 0 |
| 50 | CUGGAGCGAUGGGCUGUG | 0.598 | 0.314 | 0.0249 | 0 |

Excerpt, the final 4 entries:

- CUGGAGCGAUUGUUUGGG (pool 0.824) -> inoculated region 0.230; leaf margin 0.0488; systemic leaves 0
- CUGGAGCGAUUGUCUGUG (pool 0.743) -> inoculated region 1.62; leaf margin 0.0482; systemic leaves 0
- CUGGAGCGAUAGCAUGUG (pool 0.873) -> inoculated region 0.286; leaf margin 0.0213; systemic leaves 0
- CUGGAGCGAUGGGCUGUG (pool 0.598) -> inoculated region 0.314; leaf margin 0.0249; systemic leaves 0

The measurements come from Wu et al. 2024 (doi:10.1371/journal.ppat.1012142).